A mixed list of measured activities; the numbers were collected in NIAID ChemDB.

Common to all: enzyme or target tests; agent: HIV-1; protein: Protease; measure: IC50

ICn: concentration for n% inhibition. Conditions beyond the fields shown may differ between rows. a–b is a range or a potency band. Blank or dashed fields: not listed here.

structure | strain or isolate | method | setting | result
COc1cc(O)cc2c1C(=O)C[C@@H](c1ccccc1)O2 | - | HPLC | - | >100 µg/mL
COc1ccccc1C(Cc1c(O)c2ccccc2oc1=O)C(C)=O | - | - | - | 9.1 µM
CCCN=C(Nc1nc2c(C)cccc2s1)N[C@@H]1OC[C@@H](OC(C)=O)[C@H](OC(C)=O)[C@H]1OC(C)=O | - | - | - | 28.37 µg/mL
CC(C)(C)OC(=O)N[C@@H](Cc1ccccc1)[C@H](O)CNC[C@@H](O)[C@H](Cc1ccccc1)NC(=O)OC(C)(C)CCCNCc1ccccc1 | - | HPLC | pH 5.5 | 10 µM
Cc1ccc(Cl)cc1N1CCN(Cc2cn([C@@H](Cc3ccccc3)[C@H](Cc3ccccc3)NC(=O)OCC3CCCO3)nn2)CC1 | - | fluorescence | - | >5 µM
CC(=O)C(Cc1c(O)c2ccc(C)cc2oc1=O)c1ccccc1 | - | - | - | >200 µM
CC(C)(C)OC(=O)N[C@@H](Cc1ccccc1)[C@H](O)CNC[C@@H](O)[C@H](Cc1ccccc1)NC(=O)C(C)(O)C(C)(C)C | - | substrate cleavage | - | 0.05 µM
O=S1(=O)[C@H](Cc2ccccc2)[C@H](OCc2ccccc2)[C@H](O)[C@@H](O)[C@H](OCc2ccccc2)[C@H]1Cc1ccccc1 | - | fluorescence | - | <2 µM
O=c1oc2ccccc2c(O)c1CCCSc1ccccc1 | - | - | - | 0.862 µM
COc1ccc(Cc2c(O)c3ccccc3oc2=O)cc1OC | - | HPLC | pH 5.2 | 84 µM
CC(C)(C)NC(=O)[C@@H]1C[C@@H]2CCCC[C@@H]2CN1C[C@@H](O)[C@H](Cc1ccccc1)NC(=O)[C@@H](NC(=O)c1ccccc1)C(C)(C)C | - | - | - | 0.011 µM
CC(C)(C)NC(=O)[C@@H]1CSCN1C(=O)[C@@H](O)[C@H](Cc1ccccc1)NC(=O)[C@H](CS(C)(=O)=O)NC(=O)COc1cccc2cnccc12 | - | - | - | 0.0072 µM
O=C1N(Cc2cccc(CO)c2)[C@H](Cc2ccccc2)[C@H](O)[C@@H](O)[C@@H](Cc2ccccc2)N1Cc1cccc(CO)c1 | RF | - | - | 0.0079 µM
O=C(c1ccccc1)c1c(O)cc(-c2ccccc2)oc1=O | - | HPLC | pH 5.2 | 81 µM
O=S1(=O)[C@H](Cc2ccccc2)[C@H](OCc2cccc(O)c2)[C@H](O)[C@@H](O)[C@@H](OCc2cccc(O)c2)[C@H]1Cc1ccccc1 | - | fluorescence | - | <2 µM
[Cl][Pt-2]([Cl])([Cl])[Cl].[K+].[K+] | SF2 | fluorescence | - | >1000 µM
CC(C)(C)NC(=O)[C@@H]1C[C@@H]2CCCC[C@@H]2CN1C[C@@H](O)[C@H](Cc1ccccc1)NC(=O)[C@@H](NC(=O)c1ccccc1)C(C)(C)S(C)(=O)=O | - | - | - | 0.0019 µM
CC(C)(C)NC(=O)[C@@H]1Cc2ccccc2CN1C(=O)[C@@H](O)[C@H](Cc1ccccc1)NC(=O)[C@H](CC(N)=O)NC(=O)OCc1ccccc1 | - | - | - | >1 µM
COc1cccc(CO[C@@H]2[C@H](O)[C@@H](O)[C@@H](OCc3cccc(OC)c3)[C@@H](Cc3ccccc3)S(=O)(=O)[C@@H]2Cc2ccccc2)c1 | - | fluorescence | - | <2 µM
COc1ccc(C(Cc2c(O)c3cccc(C)c3oc2=O)C(C)=O)cc1 | - | - | - | 36 µM
O=c1oc2ccccc2c(O)c1Cc1ccccc1 | - | HPLC | pH 5.2 | 120 µM
O=S1(=O)[C@@H](Cc2ccccc2)[C@@H](OCc2ccccc2)[C@@H](O)[C@H](O)[C@H](OCc2ccccc2)[C@@H]1Cc1ccccc1 | - | fluorescence | - | 10–50 µM
O=C(N[C@@H](Cc1ccccc1)[C@H](O)CNC[C@@H](O)[C@H](Cc1ccccc1)NC(=O)c1ccccc1)c1ccccc1 | - | HPLC | pH 5.5 | >10 µM
CC(C)(C)CC(=O)N[C@@H](Cc1ccccc1)[C@H](O)CN1C[C@H]2CCCC[C@H]2C[C@H]1C(=O)NC(C)(C)C | - | - | - | 0.7 µM
CC(=O)C(Cc1c(O)c2cccc(C)c2oc1=O)c1ccc(Cl)cc1 | - | - | - | 25 µM
O=C(O)/C=C/c1ccc(O)c(O)c1 | - | - | - | >100 µM
CC(C)(C)NC(=O)[C@H]1N(C(=O)[C@@H](O)[C@H](Cc2ccccc2)NC(=O)[C@H](CC(N)=O)NC(=O)COc2cccc(-c3ccccc3)c2)CSC1(C)C | - | - | - | 0.0022 µM
O=S1(=O)[C@H](Cc2ccccc2)[C@H](OCc2ccccc2)[C@H](O)[C@@H](O)[C@@H](OCc2ccccc2)[C@@H]1Cc1ccccc1 | - | fluorescence | - | <2 µM
CCCCCCCCCCN=C(Nc1nc2ccc(OC)cc2s1)N[C@@H]1OC[C@@H](OC(C)=O)[C@H](OC(C)=O)[C@H]1OC(C)=O | - | - | - | 73.93 µg/mL
O=C(N[C@@H](Cc1ccccc1)[C@H](Cc1ccccc1)n1cc(CN2CCC(c3ccccc3)CC2)nn1)OC1CCCC1 | - | fluorescence | - | <5 µM
CC(C)(C)NC(=O)[C@@H]1C[C@@H]2CCCC[C@@H]2CN1C[C@@H](O)[C@H](Cc1ccccc1)NC(=O)[C@H](CC(N)=O)NC(=O)c1ccccc1 | - | - | - | 0.044 µM
Cc1c(O)cccc1C(=O)N[C@@H](Cc1ccc(-c2ccc3ccccc3c2)cc1)[C@H](O)C(=O)N1C[C@@H](Cl)C[C@H]1C(=O)NC(C)(C)C | - | - | - | 0.0001 µM
[Cl][Pd][Cl] | SF2 | fluorescence | - | >400 µM
CC(C)(C)OC(=O)N[C@@H](Cc1ccccc1)[C@H](O)CNC[C@@H](O)[C@H](Cc1ccccc1)NC(=O)[C@](C)(O)c1ccccc1 | - | HPLC | pH 5.5 | <10 µM
N#Cc1ccc(O[C@@H]2[C@H](O)[C@@H](O)[C@@H](Oc3ccc(C#N)cc3)CS(=O)[C@@H]2Cc2ccccc2)cc1 | - | fluorescence | - | 10–50 µM
O=C1C[C@@H](c2ccccc2)Oc2cc(O)cc(O)c21 | - | HPLC | - | >100 µg/mL
COc1ccc(C(CC(C)=O)c2c(O)c3cc(C)ccc3oc2=O)cc1 | - | - | - | >200 µM
O=[N+]([O-])c1cccc(CO[C@@H]2[C@H](O)[C@@H](O)[C@@H](OCc3cccc([N+](=O)[O-])c3)[C@@H](Cc3ccccc3)S(=O)[C@@H]2Cc2ccccc2)c1 | - | fluorescence | - | <2 µM
O=C(N[C@@H](Cc1ccccc1)[C@H](Cc1ccccc1)n1cc(CN2CCN(c3cccc(C(F)(F)F)c3)CC2)nn1)OC1CCCC1 | - | fluorescence | - | <5 µM
CC(C)[C@H](NC(=O)N(C)Cc1ccccn1)C(=O)N[C@@H](Cc1ccccc1)[C@H](O)[C@H](O)[C@H](Cc1ccccc1)NC(=O)[C@@H](NC(=O)N(C)Cc1ccccn1)C(C)C | - | HPLC | - | 0.0023 µM
CC1(C)CC[C@]2(C(=O)O)CC[C@]3(C)C(=CC[C@@H]4[C@@]5(C)CC[C@H](O)C(C)(C)[C@@H]5CC[C@]43C)[C@@H]2C1 | - | absorbance | - | <80 µM
COc1ccc(C(CC(C)=O)c2c(O)c3cccc(C(C)C)c3oc2=O)cc1 | - | - | - | 25 µM
CC(=O)O[C@@H]1[C@@H](OC(C)=O)[C@H](OC(C)=O)CO[C@H]1NC(=NCc1ccccc1)Nc1nc2c(C)cccc2s1 | - | - | - | 353 µg/mL

A second listing of 6 rows from above:

| structure | strain or isolate | method | setting | result |
|---|---|---|---|---|
| CC(C)(C)CC(=O)N[C@@H](Cc1ccccc1)[C@H](O)CN1C[C@H]2CCCC[C@H]2C[C@H]1C(=O)NC(C)(C)C | - | - | - | 0.7 µM |
| O=C(N[C@@H](Cc1ccccc1)[C@H](Cc1ccccc1)n1cc(CN2CCC(c3ccccc3)CC2)nn1)OC1CCCC1 | - | fluorescence | - | <5 µM |
| O=S1(=O)[C@H](Cc2ccccc2)[C@H](OCc2ccccc2)[C@H](O)[C@@H](O)[C@H](OCc2ccccc2)[C@H]1Cc1ccccc1 | - | fluorescence | - | <2 µM |
| Cc1c(O)cccc1C(=O)N[C@@H](Cc1ccc(-c2ccc3ccccc3c2)cc1)[C@H](O)C(=O)N1C[C@@H](Cl)C[C@H]1C(=O)NC(C)(C)C | - | - | - | 0.0001 µM |
| O=C1N(Cc2cccc(CO)c2)[C@H](Cc2ccccc2)[C@H](O)[C@@H](O)[C@@H](Cc2ccccc2)N1Cc1cccc(CO)c1 | RF | - | - | 0.0079 µM |
| CC(C)(C)NC(=O)[C@@H]1C[C@@H]2CCCC[C@@H]2CN1C[C@@H](O)[C@H](Cc1ccccc1)NC(=O)[C@@H](NC(=O)c1ccccc1)C(C)(C)S(C)(=O)=O | - | - | - | 0.0019 µM |